A mixed list of measured activities; the numbers were collected in NIAID ChemDB.

Shared fields: growth or infection tests; agent: Hepatitis C virus; endpoint: EC90

An empty or dashed field is not shown.

smiles | strain or isolate | cells | method | conditions | value
COC(=O)C1=C(C(=O)OC)C2N(CCOCCN3c4ccccc4[C@]45CC(=O)N(Cc6ccccc6)C4=NC(C(=O)OC)=C(C(=O)OC)C35)C3C=CC=CC3[C@@]23CCC(=O)N(Cc2ccccc2)C3=N1 | - | Huh7.5 | PCR | - | 25.9 µM
C[C@@]1(F)[C@H](O)[C@@H](CO)O[C@H]1n1ccc(=O)[nH]c1=O | WILD TYPE | - | replicon / PCR | - | >100 µM
Clc1ncnc2c1ncn2C1C[C@H]2C[C@@H]1c1cscc12 | 1b | Huh | replicon | - | >16 µM
COC(=O)C1=C(C(=O)OC)C2N(CCCCCNC(=O)CCCCCNC(=O)CCCC3SCC4NC(=O)NC43)c3ccccc3[C@@]23CC(=O)N(Cc2ccccc2)C3=N1 | - | Huh7.5 | PCR | - | 47.3 µM
O=C(Nc1ccc(Cl)cc1)c1cc(-n2cccc2)n(-c2ccc(Cl)cc2)n1 | Con1 (gt 1b) | Huh 5-2 | luciferase / replicon | - | 170.9 µM
CCCC(NC(=O)[C@@H]1[C@@H]2[C@H](CN1C(=O)[C@@H](NC(=O)OC(C)(C)C)C(C)(C)C)C2(C)C)C(=O)C(=O)NCC(=O)N[C@H](C(=O)N(C)C)c1ccccc1 | - | - | replicon | - | 0.25 µM
O=c1nc(NO)ccn1[C@H]1O[C@@H](CO)[C@H](O)[C@@H]1F | - | Huh7 | replicon | - | 5 µM
CC(C)[C@H](NC(=O)N[C@H](C(=O)N1C[C@H]2C([C@H]1C(=O)NC(CC1CC1)C(=O)C(N)=O)C2(C)C)C(C)(C)C)C(=O)c1cccs1 | 1 | - | replicon | - | 0.1 µM
C#Cc1cn([C@H]2O[C@H](CO)[C@@H](O)[C@@]2(C)F)c2nc(N)nc(N)c12 | - | CEM | replicon | - | >10 µM
CC(C)(C)C(=O)OCOP(=O)(CC[C@H]1O[C@@H](n2cnc3c(N)ncnc32)[C@](C)(F)[C@@H]1O)OCOC(=O)C(C)(C)C | - | Huh7 | PCR | - | >10 µM
Cc1c(C(=O)Nc2ccccc2)nn(-c2ccc(Cl)cc2)c1-n1cccc1 | Con1 (gt 1b) | Huh 5-2 | luciferase / replicon | - | 57.1 µM
COc1ncnc2c1ccn2[C@H]1O[C@H](CO)[C@@H](O)[C@@]1(C)F | - | CEM | replicon | - | >10 µM
COC(=O)NC[C@H](C(=O)N1CCCC1c1ncc(-c2ccc(-c3ccc(-c4cnc(C5CCCN5C(=O)[C@@H](NC(=O)OC)C(C)C)[nH]4)cc3)cc2)[nH]1)C(C)C | 1b | Huh7 | - | - | 0.00005 µM
O=C(N[C@@H](C(=O)N1CCC[C@H]1c1ncc(-c2ccc(-c3ccc(-c4cnc([C@@H]5CCCN5C(=O)[C@H](NC(=O)C5CC5)c5ccccc5)s4)cc3)cc2)s1)c1ccccc1)C1CC1 | genotype 1b | Huh7.5 | luciferase / reporter gene | - | 0.0000074 µM
CC(C)(C)C(=O)OCOP(=O)(CC[C@H]1O[C@@H](n2ccc(=O)[nH]c2=O)[C@](C)(F)[C@@H]1O)OCOC(=O)C(C)(C)C | - | Huh7 | PCR | - | >10 µM
COc1nc(N)nc2c1ncn2[C@@H]1O[C@H](COP(=O)(N[C@@H](C)C(=O)OC(C)C)Oc2ccccc2)[C@@H](O)[C@@]1(C)F | H77 | Huh7 | luciferase | - | 0.0105 µM
NC(=O)c1ncn(CCC2(O)NC(=O)C(OCc3ccccc3)=C2OCc2ccccc2)c1C(N)=O | 1b | Huh 5-2 | luciferase / replicon | - | >100 µg/mL
CNc1ncnc2c1c(F)cn2[C@@H]1O[C@H](CO)[C@@H](O)[C@@]1(C)F | - | CEM | replicon | - | >10 µM
CCc1cc2c(cc1F)c(C#N)c(-c1ccc(S(=O)(=O)N[C@@H](C)C(F)(F)F)cn1)n2-c1ncccn1 | 1b | - | PCR | - | 0.0096 µM
C#Cc1cn([C@@H]2O[C@H](CO)[C@@H](O)[C@@]2(C)F)c2ncnc(N)c12 | - | CEM | replicon | - | >10 µM
Nc1nc(Cl)nc2c1ncn2[C@@H]1O[C@H](CO)[C@@H](F)[C@@H]1F | - | Huh7 | replicon | - | >10 µM
COC(=O)N[C@H](C(=O)N1CCC[C@H]1c1ncc(-c2ccc(-c3ccc(-c4cnc([C@@H]5CCCN5C(=O)[C@@H](NC(=O)OC)C(C)C)[nH]4)s3)cc2)[nH]1)C(C)C | 1b replicon | Huh7 | replicon | - | >0.01 µM
CCOC(=O)[C@H](C)NP(=O)(OC[C@H]1O[C@@H](n2cc(I)c3c(N)ncnc32)[C@](C)(F)[C@@H]1O)Oc1ccccc1 | - | CEM | replicon | - | >10 µM
N#Cc1c(C(=O)Nc2ccc(Cl)cc2)nn(-c2ccc(Cl)cc2)c1-n1cccc1 | Con1 (gt 1b) | Huh 5-2 | luciferase / replicon | - | 151.7 µM
CN(C)c1ccc(/C=N/Nc2nc(-c3ccc(F)cc3)cs2)cc1 | - | Huh7 ET | luciferase / reporter gene / replicon | - | >20 µM
CSc1ccn([C@@H]2O[C@H](CO)[C@@H](O)[C@H]2F)c(=O)n1 | - | Huh7 | replicon | - | >100 µM
CC(C)(C)OC(=O)N1CCN([C@@H](c2ccccc2)C(N)c2ccccc2)CC1 | - | - | absorbance | - | 8.15 µM
CNC(=O)c1c(-c2ccc(F)cc2)oc2cc(N(CCO)S(C)(=O)=O)c(C3CC3)cc12 | 1b | Huh7 | - | - | 0.03 µM
CC(C)C(NC(=O)N[C@H](C(=O)N1C[C@H]2C([C@H]1C(=O)NC(CC1CC1)C(=O)C(=O)NCCc1ccccc1)C2(C)C)C(C)(C)C)C(=O)O | - | - | replicon | - | 20 µM
O=c1[nH]c(=O)n2c3c1nnn3CC1OC2[C@H](O)[C@@H]1O | - | Huh7 | replicon | - | 13 µM
CC(C)(C)[C@H](NC(=O)N[C@H](C(=O)N1C[C@H]2C([C@H]1C(=O)NC(CC1CC1)C(=O)C(N)=O)C2(C)C)C(C)(C)C)C(=O)OC1Cc2ccccc2C1 | - | - | replicon | - | 0.5 µM
COc1c(C(C)(C)C)cc(-n2ccc(=O)[nH]c2=O)c2ncc(-c3ccc(NS(C)(=O)=O)cc3)cc12 | GT 1a-H77 | Huh7 | replicon | 40% human serum | 0.025 µM
Clc1ncnc2c1ncn2C1C[C@H]2C[C@@H]1[C@@H]1CSC[C@H]21 | 1b | Huh | replicon | - | >20 µM

For reference, 2 entries again:

| smiles | strain or isolate | cells | method | conditions | value |
|---|---|---|---|---|---|
| COc1c(C(C)(C)C)cc(-n2ccc(=O)[nH]c2=O)c2ncc(-c3ccc(NS(C)(=O)=O)cc3)cc12 | GT 1a-H77 | Huh7 | replicon | 40% human serum | 0.025 µM |
| CN(C)c1ccc(/C=N/Nc2nc(-c3ccc(F)cc3)cs2)cc1 | - | Huh7 ET | luciferase / reporter gene / replicon | - | >20 µM |

ECn: concentration that inhibits the pathogen or its effect by n%. Neighbouring rows are from separate reports.